Patent publication US20220135655A1

biological target: H5VN04 (influenza A virus H5VN04 (H5N1)); test: SPR; conditions: scFv

Row | Substance | Kd [µM]
1 | CR6261 F54A | 0.29
2 | CR6261 Y98A | 1.6
3 | F10 Y98A | 0.35
